PubChem BioAssay AID1259414 – Drosophila RNAi Screening Center, 2018
Screen: 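Host factors increasing or decreasing Wolbachia levels in cultured fly cells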 (primary screen). Cells: Drosophila JW18 cells infected with Wolbachia. Knock-down reagent: long dsRNA against Drosophila genes, 0.25 µg dsRNA per well of a 384-well plate. Time to read-out: 5 days. Conditions: cells persistently infected with Wolbachia before knock-down; no added drug. Read-out: 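Imaged fluorescence in situ signal for Wolbachia 23S rRNA per DAPI-counted host cell, given as a robust z-score within each plate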. Direction: Wolbachia per cell robust z: higher = more Wolbachia per host cell than the plate typical. Active means: 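Active if absolute robust z reaches 1.5 in two or more of three replicates, leaving out multi- or no-target dsRNAs, genes unexpressed in JW18 and A1 wells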.
The screen tested about 24,000 reagents; shown is a random part of those that have a named target and a result. In the full data, about 1,210 (5%) are marked active. 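Inactive calls also include excluded dsRNAs with several or no targets, genes unexpressed in JW18, and well A1, regardless of score.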 Reagents against one gene are numbered here. Names joined by + are all predicted targets of the reagent.

| gene knocked down | reagent | Wolbachia per cell robust z, rep 1 | Wolbachia per cell robust z, rep 2 | Wolbachia per cell robust z, rep 3 | Outcome |
| --- | --- | --- | --- | --- | --- |
| CG9863 + CG3502 | 1 | 0.62 | 1.17 | -3.66 | inactive |
| bma (GeneID 5740442) | 1 | -0.44 | -1.11 | -0.463 | inactive |
| bma (GeneID 5740442) | 2 | -0.794 | -6.61 | -1.45 | inactive |
| bma (GeneID 5740442) | 3 | 0.269 | -0.813 | -0.305 | inactive |
| CG2765 (GeneID 37994) | 1 | 1.57 | 0.965 | -0.641 | inactive |
| asRNA:CR43159 + yellow-k | 1 | -1.21 | 2.11 | -0.746 | inactive |
| CG30323 (GeneID 246539) | 1 | 0.445 | 0.808 | -2.4 | inactive |
| santa-maria (GeneID 34024) | 1 | 1.29 | 0.187 | 1.14 | inactive |
| santa-maria (GeneID 34024) | 2 | -7.37 | -3.34 | -0.0311 | inactive |
| Nmt (GeneID 38909) | 1 | 0.133 | 0.791 | -0.152 | inactive |
| Hmgcr (GeneID 42803) | 1 | 1.83 | 1.37 | 2.84 | active |
| Hmgcr (GeneID 42803) | 2 | 0.428 | 0.147 | -0.243 | inactive |
| CG3345 (GeneID 33192) | 1 | -6.96 | 1.68 | 0.449 | inactive |
| CG11927 (GeneID 33687) | 1 | 1.07 | 1.15 | -1.12 | inactive |
| CG5909 (GeneID 43274) | 1 | 0.513 | -0.217 | -3.27 | inactive |
| CG5909 (GeneID 43274) | 2 | -0.565 | -0.635 | 1.16 | inactive |
| CG17726 (GeneID 41349) | 1 | 0.744 | 0.101 | -1.13 | inactive |
| Pino (GeneID 33288) | 1 | 0.0954 | 0.755 | 0.821 | inactive |
| Pino (GeneID 33288) | 2 | -0.488 | -6.03 | 0.295 | inactive |
| Poxm (GeneID 40990) | 1 | 0.0997 | 0.131 | -0.422 | inactive |
| Poxm (GeneID 40990) | 2 | 0.64 | -0.546 | 0.857 | inactive |
| CG13376 (GeneID 3346142) | 1 | 0.268 | 1.07 | 1.13 | inactive |
| CG6972 + CCAP | 1 | -0.0297 | -0.457 | 1.25 | inactive |
| UK114 (GeneID 34897) | 1 | 0.775 | 0.428 | -6.49 | inactive |
| CanB (GeneID 44317) | 1 | -0.84 | 1.32 | 0.491 | inactive |
| CanB (GeneID 44317) | 2 | 0.147 | 0.443 | -0.245 | inactive |
| CanB (GeneID 44317) | 3 | -1.66 | -0.676 | -0.252 | inactive |
| Cyp6a2 (GeneID 35587) | 1 | 0.479 | -0.229 | -0.172 | inactive |
| Cyp6a2 (GeneID 35587) | 2 | 1.23 | 0.492 | 0.528 | inactive |
| B-H1 (GeneID 32724) | 1 | 1.21 | 0.818 | 0.748 | inactive |
| B-H1 (GeneID 32724) | 2 | -0.935 | -1.62 | -0.842 | inactive |
| CG9449 (GeneID 40117) | 1 | -0.676 | 0.948 | 0.851 | inactive |
| CG9449 (GeneID 40117) | 2 | 0.572 | 0.0587 | 1.96 | inactive |
| CG9449 (GeneID 40117) | 3 | 1.8 | 0.463 | -0.813 | inactive |
| Hs6st (GeneID 42380) | 1 | -0.2 | -0.742 | 0.0165 | inactive |
| Hs6st (GeneID 42380) | 2 | 0.0496 | 0.976 | 0.574 | inactive |
| Hs6st (GeneID 42380) | 3 | -3.92 | 0.714 | -1.28 | inactive |
| Hs6st (GeneID 42380) | 4 | 0.982 | 0.0741 | 0.322 | inactive |
| CG15040 (GeneID 32848) | 1 | -0.921 | -0.181 | -0.204 | inactive |
| CG15040 (GeneID 32848) | 2 | 0.415 | -0.953 | 0.909 | inactive |
| CG15040 (GeneID 32848) | 3 | -0.726 | 0.836 | -0.924 | inactive |
| CG43902 (GeneID 31948) | 1 | -2.37 | -0.194 | 0.268 | inactive |
| CG43902 (GeneID 31948) | 2 | 0.776 | -0.385 | -3.13 | inactive |
| CG43902 (GeneID 31948) | 3 | 2.6 | 0.267 | 0.611 | inactive |
| CG43902 (GeneID 31948) | 4 | -0.271 | -0.896 | -0.00265 | inactive |
| CG43902 (GeneID 31948) | 5 | -1.31 | -1.97 | -0.908 | inactive |
| CG30432 (GeneID 246611) | 1 | 0.484 | -0.776 | -1.19 | inactive |
| mtd (GeneID 45467) | 1 | 0.512 | -0.0803 | 0.821 | inactive |
| mtd (GeneID 45467) | 2 | -0.0124 | 1.31 | -4 | inactive |
| mtd (GeneID 45467) | 3 | 0.316 | -1.19 | 0.634 | inactive |
| mtd (GeneID 45467) | 4 | -1.12 | 0.549 | -1.08 | inactive |
| mtd (GeneID 45467) | 5 | 0.723 | 0.472 | -1.68 | inactive |
| CG16854 (GeneID 34539) | 1 | 0.205 | -1.15 | 1.18 | inactive |
| eIF3c (GeneID 37005) | 1 | 3.46 | 4.18 | 1.95 | active |
| CG11294 (GeneID 31807) | 1 | -0.158 | 1.31 | -0.157 | inactive |
| CG11294 (GeneID 31807) | 2 | 0.346 | -0.875 | 0.552 | inactive |
| CG14995 (GeneID 38487) | 1 | -0.0465 | -5.85 | -8.01 | active |
| vas + solo | 1 | 0.647 | -1.94 | 0.814 | inactive |
| vas + solo | 2 | 0.00713 | -0.227 | -0.527 | inactive |
| vas + solo | 3 | -1.16 | -0.642 | -0.164 | inactive |
| CG11997 (GeneID 41093) | 1 | 0.783 | 0.563 | 0.734 | inactive |
| CG11997 (GeneID 41093) | 2 | -1.22 | 1.07 | -1.15 | inactive |
| alpha-Est4aPsi (GeneID 3772290) | 1 | -2.97 | -4.47 | -3.08 | inactive |
| CG5665 (GeneID 40243) | 1 | -2.85 | 0.108 | -0.131 | inactive |
| CG7255 (GeneID 39662) | 1 | -0.262 | -0.699 | 0.34 | inactive |
| CG7386 (GeneID 38719) | 1 | -0.287 | -0.126 | 0.489 | inactive |
| CG7386 (GeneID 38719) | 2 | 0.729 | -6.15 | 0.629 | inactive |
| CG33631 (GeneID 3771784) | 1 | 0.941 | -0.681 | 1.42 | inactive |
| CG33631 (GeneID 3771784) | 2 | -3.03 | -2.54 | 0.721 | inactive |

Look-ups from the entries so far.
CG5665 (GeneID 40243), Outcome: inactive
Result of CG9449 (GeneID 40117) #3 under “Wolbachia per cell robust z, rep 3”: -0.813
bma (GeneID 5740442) #2, Wolbachia per cell robust z, rep 2 = -6.61
mtd (GeneID 45467) #2, Outcome → inactive
For “Wolbachia per cell robust z, rep 3”, CG15040 (GeneID 32848) #2 is entered as 0.909
Result of CG33631 (GeneID 3771784) #2 in “Wolbachia per cell robust z, rep 1”: -3.03
